Compound potency records, mixed from different reports. Data source: NIAID ChemDB in PubChem.

All rows: growth or infection tests; agent: Mycobacterium tuberculosis

Rows are shuffled and stem from different studies.

structure	read by	setting	strain or isolate	tested at	changes	cell line	read-out	result
COc1ccc(/C=N/NC(=O)COc2ccc(NC(C)=O)cc2)cc1	-	-	H37Rv	12.5 µg/mL	-	-	inhibition	25%
O=C(NNCc1cccc(C(F)(F)F)c1)c1ccncc1	-	-	Erdman	-	-	-	MIC	>6.25 µg/mL
NNc1n[nH]c(=O)c2cnccc12	BACTEC	-	H37Rv	12.5 µg/mL	-	-	inhibition	1%
Cc1ccc(NC(=O)CSc2nnc(-c3ccco3)o2)cc1F	resazurin	-	Clinical isolate	-	-	-	MIC	16 µg/mL
NC(=O)c1nc([C@@H]2O[C@H](CO)[C@@H](O)[C@H]2O)no1	BACTEC	-	H37Rv	-	-	-	MIC bound	>12.5 µg/mL
Cc1cc(C)c2c(c1)C(O)(N1CCCC(C)C1)C(=O)N2	resazurin	-	18b	-	-	-	MIC	>16 µg/mL
CCN1CCc2c(sc(NC(=O)c3c(F)c(F)c(F)c(F)c3F)c2C#N)C1	turbidity	-	ATCC35838	-	-	-	EC90	13 µM
O=C1c2cc(Cl)ccc2OP(=O)(c2ccccc2)N1c1ccc(C(F)(F)F)cc1	-	21 d	234/2005	-	-	-	MIC	1 µM
CC(C)C(NC(=O)C1CCCN1C(=O)OCc1ccccc1)C(=O)NN	BACTEC	-	H37Rv	-	-	-	MIC	≥12.5 µg/mL
CC(=O)Nc1ccc(OCC(=O)NN2C(=O)CSC2c2ccc(N(C)C)cc2)cc1	-	-	H37Rv	-	-	-	EC50	>12.5 µg/mL
O=C1CSC(c2ccccc2)N1C(=O)NCCCN1c2ccccc2Sc2ccccc21	agar	-	H37Rv	25 µg/mL	-	-	inhibition	20%
O=C(NCCO)C(=O)N/N=C/c1ccc([N+](=O)[O-])o1	-	-	TAC-R	-	-	-	MIC	6.3 µg/mL
Cc1ccc(Cl)cc1N=c1c([N+](=O)[O-])nn(-c2ccccc2)n1O	resazurin	-	18b	-	-	-	MIC	4 µg/mL
CN(C)CCNC(=O)c1cc([N+](=O)[O-])cn1C	BACTEC	-	H37Rv	12.5 µg/mL	-	-	inhibition	0%
CCN1CCc2c(sc(NC(=O)c3c(F)c(F)c(F)c(F)c3F)c2C(=O)NC)C1	turbidity	-	ATCC35838	-	-	-	EC90	3.3 µM
O=C(Nc1ccc(C(F)(F)F)cc1)c1cc(Cl)ccc1OP(=O)(c1ccccc1)c1ccccc1	-	14 d	9449/2007	-	-	-	MIC	1 µM
CN[C@@H]1[C@H](O[C@H]2[C@H](O[C@H]3[C@H](O)[C@@H](O)[C@H](N=C(N)N)[C@@H](O)[C@@H]3N=C(N)N)O[C@@H](C)[C@]2(O)C=O)O[C@@H](CO)[C@H](O)[C@H]1O	-	-	38396	-	-	-	MIC	<2 µg/mL
Cc1cc(=O)oc2cc(N)ccc12	resazurin	-	3426	-	-	-	MIC	1000 µg/mL
c1ccc2c(c1)[nH]c1nc3ncncc3nc12	resazurin	-	H37Rv	6.25 µg/mL	-	-	inhibition	27%
CC1(C)S[C@@H]2[C@H](NC(=O)C(C(=O)O)c3ccccc3)C(=O)N2[C@H]1C(=O)O	-	-	24 strains (drug-susceptible)	-	-	-	MIC50	>256 µg/mL
O=C(O)c1cnccn1	-	-	H5009	-	-	-	MIC	480 µg/mL
NNC(=O)c1ccncc1	-	-	3897	-	-	-	MIC	≥0.2 µg/mL
CO[C@H]1/C=C/O[C@@]2(C)Oc3c(C)c(O)c4c(O)c(c5c(c4c3C2=O)NC2(CCN(CC(C)C)CC2)N=5)=NC(=O)/C(C)=C\C=C\[C@H](C)[C@H](O)[C@@H](C)[C@@H](O)[C@@H](C)[C@H](OC(C)=O)[C@@H]1C	-	-	H37RV-PLN-2	-	-	-	MIC	≤0.015 µg/mL
O=C(Nc1ccc(Br)cc1)c1cc(Cl)ccc1OP(=O)(Oc1ccccc1)c1ccccc1	-	14 d	My 331/88	-	-	-	MIC	4 µM
O=C1CSC(c2cccc(Br)c2)N1C(=O)NCCCN1c2ccccc2Sc2ccccc21	agar	-	H37Rv	25 µg/mL	-	-	inhibition	32%
CCOC(=O)c1c(NC(C)=O)sc2c1CCCC2	resazurin	-	H37Rv	-	-	-	MIC	>100 µg/mL
O=C1NC(=Nc2ccccc2Cl)N/C1=C\c1ccc(Cl)cc1Cl	-	-	H37Rv	-	-	-	MIC	>6.25 µg/mL
CC(=O)Nc1ccc(OCC(=O)NN2C(=O)C(C)SC2c2ccc(N(C)C)cc2)cc1	-	-	H37Rv	-	-	-	EC50	>12.5 µg/mL
COCC12CCC(OC)C34C5CC6(O)C(OC)CC(OC(C)=O)(C5C6OC(=O)c5ccccc5)C(C(OC)C13)C4N(C)C2	BACTEC	-	H37Rv	-	-	-	MIC bound	>12.8 µg/mL
Cc1cccc(N=Nc2c(O)c3ccc([N+](=O)[O-])cc3[nH]c2=O)c1	resazurin	-	H37Rv	6.25 µg/mL	-	-	inhibition	19%
CC(=O)Nc1ccc(OCC(=O)NN2C(=O)C(C)SC2c2ccc(Cl)cc2)cc1	-	-	H37Rv	12.5 µg/mL	-	-	inhibition	0%
O=C1NC(Nc2cccc(Cl)c2)=N/C1=C\c1ccc(Cl)cc1Cl	-	-	H37Rv	-	-	-	MIC	>6.25 µg/mL
NNC(=O)c1ccncc1	resazurin	-	18b	-	-	-	MIC	0.06 µg/mL
O=c1[nH]c2c(Cl)cccc2c(O)c1N=Nc1ccc(Cl)c(Cl)c1	resazurin	-	H37Rv	-	-	-	MIC	>6.25 µg/mL
O=C1c2cc(Br)ccc2OP(=O)(c2ccccc2)N1c1ccc(C(F)(F)F)cc1	-	7 d	My 331/88	-	-	-	MIC	1 µM
CC12CC(=O)OC(C1)C(=O)c1ccccc12	BACTEC	-	H37Rv	-	-	-	MIC bound	>12.5 µg/mL
CC(NNC(=O)c1cc[n+]([B]C#N)cc1)c1ccc(Cl)c(Cl)c1	-	-	H37Rv	-	-	-	MIC	>6.25 µg/mL
Cc1cc(S(=O)(=O)O)c(NC(=O)C(=O)C2C=CCS2(=O)=O)cc1Cl	BACTEC	-	H37Rv	12.5 µg/mL	-	-	inhibition	10%
CCN1CCc2c(sc(N)c2C(=O)O)C1	resazurin	-	H37Rv	-	-	-	MIC	>100 µg/mL
O=C(N/N=C/c1cccc(C(F)(F)F)c1)c1ccncc1	colony count	inside macrophages	Erdman	-	-	Macrophages	EC90	0.047 µg/mL
Cc1c(Cl)cccc1N=Nc1c(O)c2cccc([N+](=O)[O-])c2[nH]c1=O	resazurin	-	H37Rv	-	-	-	MIC	<6.25 µg/mL
O=C(Nc1ccc(Cl)cc1)c1cc(Cl)ccc1OP(=O)(c1ccccc1)c1ccccc1	-	14 d	My 331/88	-	-	-	MIC	4 µM
Fc1ccc(Cl)c(-c2noc(-c3ccc4nncn4c3)n2)c1	resazurin	-	18b	-	-	-	MIC	8 µg/mL
O=C(NCCCN1c2ccccc2Sc2ccccc21)N1C(=O)/C(=C\c2cccc([N+](=O)[O-])c2)SC1c1cccc([N+](=O)[O-])c1	agar	-	H37Rv	25 µg/mL	-	-	inhibition	27%
O=C(NNCc1ccccc1)c1ccccn1	BACTEC	-	H37Rv	-	-	VERO	MIC	12.5 µg/mL
CN[C@@H]1[C@H](O[C@H]2[C@H](O[C@H]3[C@H](O)[C@@H](O)[C@H](N=C(N)N)[C@@H](O)[C@@H]3N=C(N)N)O[C@@H](C)[C@]2(O)C=O)O[C@@H](CO)[C@H](O)[C@H]1O	-	-	Isolate 4	-	-	-	MIC	8 µg/mL
O=C(NCCCN1c2ccccc2Sc2ccccc21)N1C(=O)/C(=C\c2ccc(O)cc2)SC1c1ccc(O)cc1	agar	-	H37Rv	25 µg/mL	-	-	inhibition	24%
O=C1NC(=NCc2ccccc2)N/C1=C\c1ccc(Cl)cc1Cl	-	-	H37Rv	-	-	-	MIC	>12.5 µg/mL
NNC(=O)c1ccncc1	resazurin	-	3426	-	-	-	MIC	20 µg/mL
CC1COc2c(N3CCN(C)CC3)c(F)cc3c(=O)c(C(=O)O)cn1c23	-	-	24 strains (drug-susceptible)	-	-	-	MIC50	1 µg/mL
Cc1nccn1Cc1nc(-c2ccc(C(F)(F)F)cc2)no1	resazurin	-	18b	-	-	-	MIC	16 µg/mL
CCOC(=O)c1c(NC(=O)c2c(F)c(F)c(F)c(F)c2F)sc2c1CCNC2=O	turbidity	-	ATCC 35822	-	-	-	EC50	0.27 µM
CSC(=S)N/N=C(/C)c1ccco1	-	-	KM-R	-	-	-	MIC	0.8 µg/mL
COc1ccccc1C1SCC(=O)N1C(=O)NCCCN1c2ccccc2Sc2ccccc21	agar	-	H37Rv	25 µg/mL	-	-	inhibition	30%
CO[C@H]1/C=C/O[C@@]2(C)Oc3c(C)c(O)c4c(O)c(c(/C=N/N5CCN(C/C=C/c6ccccc6)CC5)c(O)c4c3C2=O)NC(=O)/C(C)=C\C=C\[C@H](C)[C@H](O)[C@@H](C)[C@@H](O)[C@@H](C)[C@H](OC(C)=O)[C@@H]1C	-	-	MTB11 (EMB-R)	-	-	-	MIC	≤0.06 µg/mL
CC[C@@H](CO)NCCN[C@@H](CC)CO	-	-	Isolate 8	-	-	-	MIC	8 µg/mL
COc1ccc(C2SC(C)C(=O)N2NC(=O)COc2ccc(NC(C)=O)cc2)cc1	-	-	H37Rv	12.5 µg/mL	-	-	inhibition	28%
O=c1[nH]c2c(Cl)ccc(Cl)c2c(O)c1N=Nc1ccc(F)cc1	resazurin	-	H37Rv	6.25 µg/mL	-	-	inhibition	80%
CC(=O)Nc1ccc(N=Nc2c(C)nn(C(=N)N)c2C)cc1	BACTEC	-	H37Rv	12.5 µg/mL	-	-	inhibition	0%
O=C(Nc1ccc(Cl)c(Cl)c1)c1cc(Cl)ccc1OP(=O)(c1ccccc1)c1ccccc1	-	14 d	My 331/88	-	-	-	MIC	2 µM
CC(NNC(=O)c1ccncc1)c1ccc(F)cc1	colony count	inside macrophages	Erdman	-	-	Macrophages	EC50	<1.84 µg/mL
COc1ccccc1/C=N/C(=O)NCCCN1c2ccccc2Sc2ccccc21	agar	-	H37Rv	25 µg/mL	-	-	inhibition	23%
NNC(=O)Cc1cccc2cc(Cl)c(Cl)cc12	BACTEC	-	H37Rv	12.5 µg/mL	-	-	inhibition	-15%
CC/C(=C(\c1ccccc1)c1ccc(OCCN(C)C)cc1)c1ccccc1	resazurin	-	RifR	-	-	-	MIC	6.25–12.5 µg/mL
CC1COc2c(N3CCN(C)CC3)c(F)cc3c(=O)c(C(=O)O)cn1c23	-	-	001-011 (drug-resistant)	-	-	-	MIC	0.75 µg/mL
CCNC(=O)c1c(NC(=O)c2c(F)c(F)c(F)c(F)c2F)sc2c1CCN(CC)C2	turbidity	-	ATCC35838	-	-	-	EC90	9.4 µM
C#CC(C)(C)Oc1cc(O)c2c(=O)c3ccccc3n(C)c2c1	resazurin	-	H37Rv	6.25 µg/mL	-	-	inhibition	1%
O=C1NC(Nc2cccc(Cl)c2)=N/C1=C\c1ccccc1Cl	-	-	H37Rv	-	-	-	MIC	>12.5 µg/mL
COc1ccc(N=Nc2c(O)c3cccc([N+](=O)[O-])c3[nH]c2=O)cc1	resazurin	-	H37Rv	-	-	-	MIC	>6.25 µg/mL
Fc1ccc(CNc2ccc(Cl)nn2)cc1	resazurin	-	Clinical isolate	-	-	-	MIC	16 µg/mL
S=C(NC1CCCCC1)SSSC(=S)NC1CCCCC1	resazurin	-	H37Rv	-	-	-	MIC bound	>6.25 µg/mL
NC[C@H]1O[C@H](O[C@H]2[C@H](O)[C@@H](O[C@H]3O[C@H](CO)[C@@H](O)[C@H](N)[C@H]3O)[C@H](N)C[C@@H]2N)[C@H](O)[C@@H](O)[C@@H]1O	-	-	Isolate 4	-	-	-	MIC	4 µg/mL
O=C1NC(=Nc2ccc(Cl)cc2Cl)N/C1=C\c1c(Cl)cccc1Cl	-	-	H37Rv	-	-	-	MIC	>12.5 µg/mL
O=C1CSC(c2cccc([N+](=O)[O-])c2)N1C(=O)NCCCN1c2ccccc2Sc2ccccc21	agar	-	H37Rv	25 µg/mL	-	-	inhibition	32%
Clc1ccc(OCc2nnc3n2N=C(c2ccccc2)CS3)c(Cl)c1	BACTEC	-	H37Rv	-	-	-	MIC bound	>12.5 µg/mL
O=C(NNCc1ccccc1)c1ccncc1	-	-	Thiacetazone-resistant	-	-	-	MIC	>6.25 µg/mL
CCN(CC)n1c(N)nc2c1c(=O)n(C)c(=O)n2C	BACTEC	-	H37Rv	-	-	-	MIC bound	>12.5 µg/mL
O=c1[nH]c2cc(Cl)ccc2c(O)c1N=Nc1ccc([N+](=O)[O-])cc1	resazurin	-	H37Rv	6.25 µg/mL	-	-	inhibition	1%
COC(COC(N)=O)C1=C(N2CC2)C(=O)C(C)=C(N2CC2)C1=O	BACTEC	-	H37Rv	-	-	-	MIC bound	≤128 µg/mL
O=C(N/N=C/c1cccc(F)c1)c1ccncc1	colony count	inside macrophages	Erdman	-	-	Macrophages	EC90	0.011 µg/mL
CCCN(CCC)CCNc1ccc(C)c2sc3ccccc3c(=O)c12	BACTEC	-	H37Rv	-	-	-	MIC	3.13 µg/mL
CCOC(=O)c1c(NC(=O)c2c(F)c(F)c(F)c(F)c2F)sc2c1CCOC2	resazurin	-	H37Rv	-	-	-	MIC	0.1 µM
CC(/C=N/NC(=S)SCc1ccccc1)=N\NC(N)=S	resazurin	-	H37Rv	6.25 µg/mL	-	-	inhibition	92%
NNC(=O)c1ccncc1	resazurin	-	FJ05189	-	Multidrug-resistant	-	MIC	<0.5 µg/mL

The last 7 rows once more:

| structure | read by | setting | strain or isolate | tested at | changes | cell line | read-out | result |
|---|---|---|---|---|---|---|---|---|
| O=c1[nH]c2cc(Cl)ccc2c(O)c1N=Nc1ccc([N+](=O)[O-])cc1 | resazurin | - | H37Rv | 6.25 µg/mL | - | - | inhibition | 1% |
| COC(COC(N)=O)C1=C(N2CC2)C(=O)C(C)=C(N2CC2)C1=O | BACTEC | - | H37Rv | - | - | - | MIC bound | ≤128 µg/mL |
| O=C(N/N=C/c1cccc(F)c1)c1ccncc1 | colony count | inside macrophages | Erdman | - | - | Macrophages | EC90 | 0.011 µg/mL |
| CCCN(CCC)CCNc1ccc(C)c2sc3ccccc3c(=O)c12 | BACTEC | - | H37Rv | - | - | - | MIC | 3.13 µg/mL |
| CCOC(=O)c1c(NC(=O)c2c(F)c(F)c(F)c(F)c2F)sc2c1CCOC2 | resazurin | - | H37Rv | - | - | - | MIC | 0.1 µM |
| CC(/C=N/NC(=S)SCc1ccccc1)=N\NC(N)=S | resazurin | - | H37Rv | 6.25 µg/mL | - | - | inhibition | 92% |
| NNC(=O)c1ccncc1 | resazurin | - | FJ05189 | - | Multidrug-resistant | - | MIC | <0.5 µg/mL |

Percent inhibition refers to the dose given; in toxicity tests it is the harm to the cells. MIC50, MIC90 and the like: level of inhibition, or share of isolates inhibited. Two numbers with a dash give a range or band. MIC bound: limit read from a one-dose screen. ECn is the concentration giving n% inhibition of infection, replication or growth. An empty or dashed field is not shown.